Measured values from several laboratories, pooled; numbers as filed in NIAID ChemDB.

Common to all: tests in culture; organism: Rhinovirus

Blank or dashed fields: not listed here. Inhibition is in % at the dose shown (toxicity tests: loss of growth or viability). ECn is the concentration giving n% inhibition of infection, replication or growth. Rows are shuffled and stem from different studies. MIC50, MIC90 and the like: level of inhibition, or share of isolates inhibited.

structure	strain or isolate	cells	method	read-out	dose	result
Cc1ccc(CCCOc2c(C)cc(-c3nnn(C)n3)cc2C)nn1	serotypes 2 14 1A 1B 6 21 22 15 25 30 50 67 89 86 41	HeLa	cytopathic effect	EC80		0.25 µg/mL
O=S(=O)([O-])c1ccc2c(NS(=O)(=O)c3ccccc3)cc(S(=O)(=O)[O-])cc2c1		Human embryonic lung cells	cytopathic effect	inhibition	50 µg/mL	33%
CC(=O)c1ccc(CCCOc2c(C)cc(-c3noc(C(F)(F)F)n3)cc2C)nn1	serotypes 3 4 5 9 16 18 38 66 75 67	HeLa	cytopathic effect	EC80		0.189 µg/mL
Cc1cc(CCCOc2c(C)cc(-c3nnc(C)o3)cc2C)on1	serotype 2 1A 1B 6 14 21 22 15 25 30 50 67 89 86 41	HeLa	plaque count	EC80		0.12 µg/mL
Cc1cc(CCCCCOc2cc(Cl)c(-c3nnco3)c(Cl)c2)on1	Serotype 67			MIC80		0.64 µg/mL
Cc1ccc(N2CCC(c3cccc(C(F)(F)F)c3)C2)nn1	100 serotypes			inhibition	0.016 µg/mL	18%
Cc1cc(OCCCc2ccc(Cl)nn2)cc(C)c1-c1noc(C(F)(F)F)n1	serotypes 3 4 5 9 16 18 38 66 75 67	HeLa	cytopathic effect	EC80		0.67 µg/mL
CSc1nsc(-c2ccc(OCCCCOc3ccc(C#N)cc3)cc2)c1C#N	Serotype 86 (group A)	HELA-OHIO	cytopathic effect	EC50		>2 µM
CN(C)c1nc(C(F)(F)F)nc2c1ncn2Cc1ccc(C(F)(F)F)cc1	Serotype 30	M-HELA	plaque count	inhibition	8 µM	40%
N#Cc1ccc2c(c1)CC(c1ccccc1)CO2	Serotype 1B	HeLa	cytopathic effect	EC25		8 µM
CCc1ccc(CCCOc2ccc(-c3noc(C(F)(F)F)n3)c(C)c2)nn1	serotypes 3 4 5 9 16 18 38 66 75 67	HeLa	cytopathic effect	EC80		0.16 µg/mL
COc1ccc(N2CCN(c3cccc(C)c3)CC2)nn1	17 serotypes			inhibition	0.047 µg/mL	18%
CC1CC(=O)NC1C(=O)NCCC#N	Serotype 2			MIC		>100 µg/mL
CCO/N=C/c1ccc(OCCC2CCN(c3ccc(Cl)nn3)CC2)cc1	1200 (ICAM-1 receptor group 33)	KB	neutral red	EC50		0.003 µM
CCCCCCCCCCCCCCOc1ccc(C(C)=O)o1	17 serotypes			inhibition	0.077 µg/mL	18%
Cc1ccc(C(=O)CCCCOc2ccc(C3=NCCO3)cc2)cc1Cl	serotype 1A 1B 2 6 14 15 21 22 25 29 30 41 42 45 59 63 67 70 72 86 89			MIC80		>269 µM
CN(C)c1nc(C(F)(F)F)nc2c1ncn2Cc1ccc(Cl)c(N)c1	Serotype 21	M-HELA	plaque count	inhibition	8 µM	10%
O=C(Nc1ccc(S(=O)(=O)[O-])c2cccc(S(=O)(=O)[O-])c12)c1ccccc1		Human embryonic lung cells	cytopathic effect	inhibition	50 µg/mL	20%
Cc1ccc(Cn2cnc3c(N(C)C)nc(C(F)(F)F)nc32)c(C)c1	Serotype 3	M-HELA	plaque count	inhibition	8 µM	40%
CSc1nsc(-c2ccc(OC(C)(C)C)cc2)c1C#N	Serotype 42 (group A)	HELA-OHIO	cytopathic effect	EC50		>40 µM
O=C(CCCCOc1c(Cl)cc(C2=NCCO2)cc1Cl)c1ccc(Cl)cc1	serotype 1A 1B 2 6 14 15 21 22 25 29 30 41 42 45 59 63 67 70 72 86 89			MIC80		>35 µM
CCOC(=O)c1ccc(OCCC2CCN(c3ccc(C)nn3)CC2)cc1	Serotype 9 (group B)	HELA-OHIO	cytopathic effect	EC50		0.04 µM
N=C(N)c1ccc(C2=Cc3cc(C(=N)N)ccc3OC2)cc1	Serotype 1B	HeLa	cytopathic effect	EC25		40 µM
Cc1cc(CCCOc2c(C)cc(-c3noc(C)n3)cc2C)on1	Serotype 14			MIC		0.07 µM
CSc1nsc(-c2ccc(OCCCOc3ccccc3)cc2)c1C#N	Serotype 41 (group B)	HELA-OHIO	cytopathic effect	EC50		>20 µM
Cc1cc(CCCOc2c(C)cc(-c3nnc(C)o3)cc2C)on1	Serotype 14			MIC		8.9 µM
N#Cc1cc([N+](=O)[O-])ccc1Oc1ccc(Cl)c(Cl)c1	TYPE 1A	VERO		inhibition	6.25 µg/mL	82%
O=S(=O)([O-])c1ccc2c(S(=O)(=O)[O-])cc(S(=O)(=O)[O-])cc2c1		Human embryonic lung cells	cytopathic effect	inhibition	10 µg/mL	5%
CC1CC(N)=NC1C(=O)NCCC(=N)N	Serotype 2			MIC		>100 µg/mL
Cc1cc(CCCOc2c(C)cc(-c3noc(C(F)(F)F)n3)cc2C)on1	Isolate 40	OHIO HELA-I	cytopathic effect / visual reading	EC50		0.01 µg/mL
N#Cc1ccc(OCCCCC(=O)c2ccccc2)cc1	serotype 1A 1B 2 6 14 15 21 22 25 29 30 41 42 45 59 63 67 70 72 86 89			MIC80		>267 µM
Nc1c(S(=O)(=O)[O-])cc2cc(S(=O)(=O)[O-])ccc2c1O		Human embryonic lung cells	cytopathic effect	inhibition	50 µg/mL	65%
Cc1cccc(C2=CCN(c3ccc(Cl)nn3)CC2)c1	100 serotypes			inhibition	0.375 µg/mL	53%
CN(C)c1nc(C(F)(F)F)nc2c1ncn2Cc1ccc([N+](=O)[O-])cc1	Serotype 30	M-HELA	plaque count	inhibition	8 µM	28%
CC(=O)c1ccoc1CCCOc1c(C)cc(-c2noc(C)n2)cc1C	15 serotype mixtures	HeLa	cytopathic effect	EC80		1.9 µM
Nc1nc2c(ccn2[C@@H]2C[C@H](CO)[C@@H](O)[C@H]2O)c(=O)[nH]1	TYPE 31			MIC		>100 µg/mL
CSc1nsc(-c2ccc(OCCCc3ccccc3)cc2)c1C#N	Serotype 51 (group B)	HELA-OHIO	cytopathic effect	EC50		>20 µM
Cc1cc(CCCCCOc2ccc(C3=NCCO3)c(Cl)c2)on1	TYPE 2			MIC		0.9 µM
CC(=O)c1coc(CCCOc2c(C)cc(-c3noc(C)n3)cc2C)c1	15 serotype mixtures	HeLa	cytopathic effect	EC80		0.4 µM
CCOC(=O)c1ccc(OCCCCOc2ccc(-c3snc(SC)c3C#N)cc2)cc1	Serotype 85 (group B)	HELA-OHIO	cytopathic effect	EC50		>2 µM
Fc1cccc(Nc2nc(C(F)(F)F)nc3c2ncn3Cc2ccc(C(F)(F)F)cc2)c1	Serotype 1B	M-HELA	plaque count	EC50		3.5 µM
CSc1nsc(-c2ccc(OCCOc3ccccc3)cc2)c1C#N	Serotype 85 (group B)	HELA-OHIO	cytopathic effect	EC50		>20 µM
N#CCNC(=O)C1CCC(=O)N1	Serotype 2			MIC		>100 µg/mL
NCS(=O)(=O)O		Human amnion AV3 cells	cytopathic effect	inhibition	10 µg/mL	50%
Cc1cc(CCCCCCCOc2ccc(C3=NC(C)(C)CO3)cc2)on1	TYPE 14			MIC		0.1 µM
COc1ccc(-c2snc(SC)c2C#N)cc1	Serotype 15 (group B)	HELA-OHIO	cytopathic effect	EC50		>12 µM
CSc1nsc(-c2ccc(OCCCOc3ccc(C#N)cc3)cc2)c1C#N	Serotype 86 (group A)	HELA-OHIO	cytopathic effect	EC50		>2 µM
Cc1cc(CCCOc2c(C)cc(-c3noc(C)n3)cc2C)on1	serotype 2 1A 1B 6 14 21 22 15 25 30 50 67 89 86 41	HeLa	plaque count	EC80		0.069 µg/mL
N#CCCNC(=O)C1CCCC(N)=N1	Serotype 2			MIC		>100 µg/mL
N=C(N)c1ccc(C2CCc3cc(C(=N)N)ccc3O2)cc1	Serotype 1B	HeLa	cytopathic effect	EC25		40 µM
CN(C)c1nc(C(F)(F)F)nc2c1ncn2Cc1ccc(Cl)cc1Cl	Serotype 4	M-HELA	plaque count	inhibition	8 µM	25%
O=P1(O)OCC2O[C@@H](n3cnc4c(SCc5ccccc5)ncnc43)[C@H](O)C2O1	TYPE 2			MIC		10 µg/mL
Fc1cccc(Cn2cnc3c(Nc4cccc(F)c4)nc(C(F)(F)F)nc32)c1	Serotype 50	M-HELA	plaque count	EC50		3.8 µM
Cc1cc(OCCCc2ccc(C(C)F)nn2)ccc1-c1noc(C(F)F)n1	serotypes 3 4 5 9 16 18 38 66 75 67	HeLa	cytopathic effect	EC80		0.15 µg/mL
Cc1cc(CCCOc2c(C)cc(-c3noc(C(F)(F)F)n3)cc2C)on1	Serotype 10			EC90		0.3 µM
CS(=O)(=O)c1ccc2c(c1)CCC(c1ccc(Cl)c(Cl)c1)O2	17 serotypes			inhibition	29.5 µg/mL	71%
Cc1cc(CCCCCOc2c(C)cc(-c3nnc(C)o3)cc2C)on1	serotype 2 1A 1B 6 14 21 22 15 25 30 50 67 89 86 41	HeLa	plaque count	EC80		0.42 µg/mL
CSc1nsc(-c2ccc(OS(=O)(=O)c3ccc(C)cc3)cc2)c1C#N	Serotype 15 (group B)	HELA-OHIO	cytopathic effect	EC50		1 µM
Cc1cc(CCCOc2cc(Cl)c(-c3nnc(C)o3)c(Cl)c2)on1	serotype 2 1A 1B 6 14 21 22 15 25 30 50 67 89 86 41			MIC80		0.35 µg/mL
N=C(N)c1ccc2c(c1)C=C(c1ccccc1)CO2	Serotype 1B	HeLa	cytopathic effect	EC25		40 µM
N=C(N)CNC(=O)C1CCC(N)=N1	Serotype 2			MIC		50 µg/mL

A second listing of 6 rows from above:

structure,strain or isolate,cells,method,read-out,dose,result
NCS(=O)(=O)O,,Human amnion AV3 cells,cytopathic effect,inhibition,10 µg/mL,50%
CSc1nsc(-c2ccc(OCCCOc3ccccc3)cc2)c1C#N,Serotype 41 (group B),HELA-OHIO,cytopathic effect,EC50,,>20 µM
Cc1cc(CCCCCOc2c(C)cc(-c3nnc(C)o3)cc2C)on1,serotype 2 1A 1B 6 14 21 22 15 25 30 50 67 89 86 41,HeLa,plaque count,EC80,,0.42 µg/mL
CCOC(=O)c1ccc(OCCC2CCN(c3ccc(C)nn3)CC2)cc1,Serotype 9 (group B),HELA-OHIO,cytopathic effect,EC50,,0.04 µM
Cc1cc(CCCCCCCOc2ccc(C3=NC(C)(C)CO3)cc2)on1,TYPE 14,,,MIC,,0.1 µM
O=C(Nc1ccc(S(=O)(=O)[O-])c2cccc(S(=O)(=O)[O-])c12)c1ccccc1,,Human embryonic lung cells,cytopathic effect,inhibition,50 µg/mL,20%